Data taken from patent publication US20240285557A1, “PHARMACEUTICAL COMPOSITION COMPRISING LIPASE INHIBITOR FOR TREATMENT OR TREATMENT OF RNA VIRAL INFECTIONS” (priority 2021, published 2024).

System: porcine reproductive and respiratory syndrome virus LMY strain
Test: Viral antigen expression (Western blot, immunofluorescence) in infected MARC-145 cells
Format: cell-based
Details: PRRSV matrix protein, 1, 10, 20 μM (FIG. 15F)

| SMILES | expression levels of the viral antigen in infected cells |
| --- | --- |
| CCN(CC)C(=O)Nc1cccc(-c2ccc(N(C)C)cc2)c1 [DABPU-DE] | higher inhibitory effects of DABPU-DE than DABPU-EM |
| CCN(C)C(=O)Nc1cccc(-c2ccc(N(C)C)cc2)c1 [DABPU-EM, 3-(4′-(dimethylamino)-(1,1′-biphenyl)-3-yl)-1-ethyl-1-methylurea] | inhibitory activity |
